Measurements: US8501450B2, “Hepatitis C virus variants” (priority 2005, dated 2013)
Several values for one entry are separate records, joined by “and”; a condition that tells them apart may be missing. Identical values can stand only once.

Tests used:
[1] = molecular target: HCV NS3 protease V36L mutant (Hepatitis C virus genotype 1a, UniProt P27958, A1027M/V1062L); experiment: biochemical
[2] = molecular target: T1, mutant HCV protease R155T (Hepatitis C virus genotype 1a, UniProt P27958, A1027M/R1181T); type: biochemical; settings: apparently fold change vs wild-type
T1 construct: A DNA fragment encoding Met^1-Ser^181 of the HCV NS3 protease was amplified; made in house; host or cells: E. coli BL21 (DE3)

[3] = molecular target: HCV NS3 protease R155T mutant (Hepatitis C virus genotype 1a, UniProt P27958, R1181T); experiment: biochemical; settings: each line a patient-specific clone
[4] = molecular target: HCV NS3 protease R155K mutant (Hepatitis C virus genotype 1a, UniProt P27958, R1181K); experiment: Enzymatic IC50 assay, HCV NS3 serine protease domain; settings: each line a patient-specific clone

With COc1ccc2c(O[C@@H]3C[C@H]4C(=O)N[C@]5(C(=O)O)C[C@H]5/C=C\CCCCC[C@H](NC(=O)OC5CCCC5)C(=O)N4C3)cc(-c3csc(NC(C)C)n3)nc2c1 [BILN 2061] the IC50 [1] was 2.1 nM, the “Resistance, Enzyme Assay” value [2] was 72 and the IC50 [3] was 696 nM and 799 nM. For the same molecule, the IC50 [4] was 632 nM and > 840 nM.
